Measured values as given in patent US7569660 (UNIVERSITY OF CHICAGO, dated 2009).
Numbering of substitutions follows the chain as printed. In names and notes the source's numbering stands.

B1: NM^L238C (other)
chain: MSDSNQGNNQQNYQQYSQNGNQQQGNNRYQGYQAYNAQAQPAGGYYQNYQGYSGYQQGGYQQYNPDAGYQQQYNPQGGYQQYNPQGGYQQQFNPQGGRGNYKNFNYNNNLQGYQAGFQPQSQGMSLNDFQKQQKQAAPKPKKTLKLVSSSGIKLANATKKVGTKPAESDKKEEEKSAETKEPTKEPTKVEEPVKKEEKPVQTEEKTEEKSELPKVEDLKISESTHNTNNANVTSADACIKEQEEEVDDEVVND
B2: NM^P138C (other)
chain: B1 chain with P138C, C238L
B3: NM^L144C (other)
chain: B1 chain with L144C, C238L
B4: NM^T158C (other)
chain: B1 chain with T158C, C238L
B5: NM^E167C (other)
chain: B1 chain with E167C, C238L
B6: NM^K184C (other)
chain: B1 chain with K184C, C238L
notes: also called K184C fibers
B7: NM^E203C (other)
chain: B1 chain with E203C, C238L
B8: NM^S234C (other)
chain: B1 chain with S234C, C238L
B9: NM^S2C (other)
chain: B1 chain with S2C, C238L
B10: NM^Q38C (other)
chain: B1 chain with Q38C, C238L
B11: NM^G43C (other)
chain: B1 chain with G43C, C238L
B12: NM^G68C (other)
chain: B1 chain with G68C, C238L

Biological target: the molecule itself
Test: fiber assembly (self-association) followed by CongoRed binding; no detectable fibers by EM

| Protein | binding result |
| --- | --- |
| B1 | no binding |

Biological target: the molecule itself
Test: fiber assembly (self-association) followed by CongoRed binding

| Protein | binding result |
| --- | --- |
| B2 | binds |
| B3 | binds |
| B4 | binds |
| B5 | binds |
| B6 | binds |
| B7 | binds |
| B8 | binds |
| B9 | binds |
| B10 | binds |
| B11 | binds |
| B12 | binds |
